Results of unrelated studies side by side (data: NIAID ChemDB).

Common to all: tests in culture; agent: HIV-1; read-out: fold resistance

Fold resistance has wild type as its base. Rows are shuffled and stem from different studies.

{"compound": "Cc1occc1C(=S)Nc1ccc(Cl)c(C(=O)OCC(C)C)c1", "changes": "RT-T139I", "cells": "CEM + CEM-SS", "read by": "cytopathic effect / XTT", "strain": "CALO(RT-T139I)", "result": "2.86"}
{"compound": "Cc1cc(S(N)(=O)=O)ccc1NC(=O)COc1ccc(Cl)cc1C(=O)c1cc(C#N)cc(C#N)c1", "changes": "RT-Y181C", "cells": "HeLa + HELA CD4+", "read by": "β-galactosidase", "strain": "HXB2", "result": "~1"}
{"compound": "CCc1c(Cc2cc(C)cc(C)c2)n(COCCO)c(=O)[nH]c1=O", "changes": "RT-E138K", "cells": "CEM", "read by": "syncytia", "strain": "IIIB", "result": "7.14"}
{"compound": "CC=CCOc1cc(NC(=S)c2ccoc2C)ccc1OC", "changes": "RT-T139I", "cells": "CEM + CEM-SS", "read by": "cytopathic effect / XTT", "strain": "CALO(RT-T139I)", "result": "3"}
{"compound": "COc1ccnc2[nH]cc(C(=O)C(=O)N3CCN(C(=O)c4ccccc4)C[C@H]3C)c12", "changes": "GP120-M426L", "cells": "MT-2", "read by": "RT activity", "strain": "LAI(GP120-M426L) Recombinant", "result": "115.5"}
{"compound": "CCC(=O)c1ccc(F)c([C@@H]2C[C@@H]2NC(=O)Nc2ccc(C#N)cn2)c1O", "changes": "NNRTI-resistant (RT K103N/Y181C)", "cells": "TZM-bl", "read by": "β-galactosidase / luminescence", "strain": "LAI", "result": "≥250"}
{"compound": "Cc1cc(C)cc(Cc2c(C(C)C)c(=O)[nH]c(=O)n2COCCO)c1", "changes": "RT-K103N", "cells": "CEM", "read by": "syncytia", "strain": "IIIB TIBO R82913-resistant (RT K103N)", "result": "≥58.8"}
{"compound": "Cc1occc1C(=S)Nc1ccc(Cl)c(C(=O)OC(C)C)c1", "changes": "RT-L100I", "cells": "CEM + CEM-SS", "read by": "cytopathic effect / XTT", "strain": "NL4-3", "result": "20"}
{"compound": "CCN1c2ncc(CCOc3ccc(-c4csc(N)n4)cc3C)cc2C(=O)N(C)c2cccnc21", "changes": "RT-K103N Y181C", "cells": "C8166", "read by": "p24", "result": "1"}
{"compound": "CC(C)=CCOc1cc(NC(=S)c2ccsc2C)ccc1Cl", "changes": "RT-L100I", "cells": "CEM + CEM-SS", "read by": "p24", "strain": "4XAZT+L100I (RT D67N K70R L100I T215Y K219Q)", "result": "17"}
{"compound": "CCN1c2ncc(CCOc3ccc(-c4ccc(C(=O)O)cc4)cc3)cc2C(=O)N(C)c2cccnc21", "changes": "RT-K103N Y181C", "cells": "C8166", "read by": "p24", "result": ">5"}
{"compound": "O=C1Nc2ccc(Cl)cc2[C@@](/C=C/C2CC2)(C(F)(F)F)N1", "changes": "RT-K103N", "result": "13.5"}
{"compound": "CCN1c2ncc(CCOc3ccc(C(=O)NCC4(C(=O)O)CCCC4)cc3C)cc2C(=O)N(C)c2cccnc21", "changes": "RT-K103N Y181C", "cells": "C8166", "read by": "p24", "result": ">1"}
{"compound": "Cc1cc(NS(=O)(=O)CC2CCCCC2)c(C)c(C(OC(C)(C)C)C(=O)O)c1-c1ccc2c(c1)CCCO2", "changes": "PI-resistant ARP-11801 (L10F/G16A/L33F/K43T/L63P/A71V/V82A)", "cells": "MT-4", "read by": "luminescence", "strain": "NL4-3", "result": "1"}
{"compound": "CCCc1cc(=O)oc2c3c(c4c(c12)OC(C)(C)CC4)O[C@H](C)[C@@H](C)C3=O", "changes": "RT-D67N K70R T215Y K219Q", "read by": "cytopathic effect / XTT", "strain": "4xAZT resistant isolate", "result": "<6"}
{"compound": "CCN1c2ncc(CCOc3ccc(-c4ccc[n+]([O-])c4C)cc3C)cc2C(=O)N(C)c2cccnc21", "changes": "RT-K103N Y181C", "cells": "C8166", "read by": "p24", "result": "1"}
{"compound": "Cc1cn([C@H]2C=C[C@@H](CO)O2)c(=O)[nH]c1=O", "changes": "RT-A62V V75I F77C F116Y Q151M", "cells": "MT-4", "read by": "p24", "strain": "XM-Q151M", "result": "73"}
{"compound": "O=C(O[C@@H]1[C@H](OC(=O)c2ccccc2)[C@@H](CO)O[C@H]1n1cnc2c(N(C(=O)c3ccccc3)C(=O)c3ccccc3)ncnc21)c1ccccc1", "changes": "T215Y", "cells": "HeLaP4", "read by": "β-galactosidase", "strain": "NL4-3", "result": "0.41"}
{"compound": "O=C1Nc2ccc(F)c(F)c2[C@@](/C=C/C2CC2)(C(F)(F)F)N1", "changes": "RT-L100I", "result": "3.68"}
{"compound": "CCc1c(Sc2cc(C)cc(C)c2)n(COCCO)c(=S)[nH]c1=O", "changes": "RT-Y181C", "cells": "CEM", "read by": "syncytia", "strain": "IIIB", "result": "137.5"}
{"compound": "Nc1nc(=O)n([C@H]2C=C[C@@H](CO)O2)cc1F", "changes": "RT-M184V", "cells": "PBMC", "read by": "p24", "strain": "RT-M184V XM-M184V", "result": "0.7"}
{"compound": "Cc1cc(C#N)cc(C(=O)c2cc(Cl)ccc2OCC(=O)Nc2ccc(OCCCN3CC=CC3)cc2C)c1", "changes": "RT-K103N P225H", "cells": "HeLa + HELA CD4+", "read by": "β-galactosidase", "strain": "HXB2", "result": "~1"}
{"compound": "CC(C)[C@H](NC(=O)OCc1ccccn1)C(=O)N[C@@H](Cc1ccccc1)[C@@H](O)C[C@H](Cc1ccccc1)NC(=O)OCc1cccnc1", "changes": "PR-M46I L63P", "cells": "MT-4", "read by": "p24", "strain": "NL4-3", "result": "1"}
{"compound": "CCOCn1c(Sc2ccccc2)c(CC)c(=O)[nH]c1=O", "changes": "RT-Y181C", "cells": "CEM", "read by": "syncytia", "strain": "IIIB", "result": "108"}
{"compound": "CCN1c2ncc(CCOc3ccc(-c4ccc(CC(=O)O)cc4O)cc3C)cc2C(=O)N(C)c2cccnc21", "changes": "RT-K103N Y181C", "cells": "C8166", "read by": "p24", "result": ">1"}
{"compound": "Cc1occc1C(=S)Nc1ccc(Cl)c(C(=O)OCC2CC2)c1", "changes": "RT-D67N K70R L100I T215Y K219Q", "cells": "CEM + CEM-SS", "read by": "cytopathic effect / XTT", "strain": "4xAZT/L100I(RT-D67N K70R T215Y K219Q L100I)", "result": "40"}
{"compound": "O=C1Nc2ccc(Cl)cc2[C@@](C#CC2CC2)(C(F)(F)F)O1", "changes": "K103N/Y181C", "cells": "MT-4", "result": "35"}
{"compound": "CCN1c2ncc(CCOc3ccc(C(=O)NCC(CC)(CC)C(=O)O)cc3C)cc2C(=O)N(C)c2cccnc21", "changes": "RT-K103N Y181C", "cells": "C8166", "read by": "p24", "result": ">1"}
{"compound": "Cc1cc(N2CCS(=O)CC2)ccc1NC(=O)COc1ccc(Cl)cc1C(=O)c1nccs1", "changes": "RT-Y181C", "cells": "MT-4", "read by": "cytopathic effect / propidium iodide", "strain": "Nevirapine-resistant (RT Y181C)", "result": "~10"}
{"compound": "CC(C)=CCOc1cc(NC(=S)c2ccoc2C)ccc1Cl", "changes": "RT-T139I", "cells": "CEM + CEM-SS", "read by": "cytopathic effect / XTT", "strain": "Calanolide A-resistant (RT T139I)", "result": "4"}
{"compound": "CCc1c(Sc2cc(C)cc(C)c2)n(COCc2ccccc2)c(=S)[nH]c1=O", "changes": "RT-E138K", "cells": "CEM", "read by": "syncytia", "strain": "IIIB", "result": "1.67"}
{"compound": "C[C@@H]1CCO[C@H]2Cn3cc(C(=O)NCc4ccc(F)cc4F)c(=O)c(O)c3C(=O)N12", "changes": "PI-resistant ARP-11801 (L10F/G16A/L33F/K43T/L63P/A71V/V82A)", "cells": "MT-4", "read by": "luminescence", "strain": "NL4-3", "result": "1"}
{"compound": "CC(C)=CCOc1cc(NC(=S)c2ccsc2C)ccc1Cl", "changes": "RT-K103N", "cells": "CEM + CEM-SS", "read by": "cytopathic effect / XTT", "strain": "NL4-3 (RT K103N)", "result": "11.7"}
{"compound": "C[C@@H]1CCO[C@H]2Cn3cc(C(=O)NCc4ccc(F)cc4F)c(=O)c(O)c3C(=O)N12", "changes": "M50I/R263K", "cells": "CBMC", "read by": "RT activity", "strain": "NL4-3", "result": "2"}
{"compound": "CC(C)OC(=S)Nc1ccc(Cl)c(/C=N/OC(C)(C)C)c1", "changes": "RT-T139I", "cells": "CEM + CEM-SS", "read by": "cytopathic effect / XTT", "strain": "CALO(RT-T139I)", "result": "4"}
{"compound": "C[C@@H]1CCO[C@H]2Cn3cc(C(=O)NCc4ccc(F)cc4F)c(=O)c(O)c3C(=O)N12", "changes": "L74F/V75I", "cells": "TZM-bl", "read by": "luciferase / luminescence", "result": "0.3"}
{"compound": "Cc1cc(S(N)(=O)=O)ccc1NC(=O)COc1ccc(Cl)cc1C(=O)c1cc(F)cc(C#N)c1", "changes": "RT-G190A", "cells": "HeLa + HELA CD4+", "read by": "β-galactosidase", "strain": "HXB2", "result": "~1"}
{"compound": "Cc1occc1C(=S)Nc1ccc(Cl)c(/C=N/OC(C)(C)C)c1", "changes": "RT-V179D", "cells": "CEM + CEM-SS", "read by": "cytopathic effect / XTT", "strain": "NL4-3", "result": "9.125"}

The last 3 rows once more:

C[C@@H]1CCO[C@H]2Cn3cc(C(=O)NCc4ccc(F)cc4F)c(=O)c(O)c3C(=O)N12 ; changes: L74F/V75I ; cells: TZM-bl ; read by: luciferase / luminescence ; result: 0.3
Cc1cc(S(N)(=O)=O)ccc1NC(=O)COc1ccc(Cl)cc1C(=O)c1cc(F)cc(C#N)c1 ; changes: RT-G190A ; cells: HeLa + HELA CD4+ ; read by: β-galactosidase ; strain: HXB2 ; result: ~1
Cc1occc1C(=S)Nc1ccc(Cl)c(/C=N/OC(C)(C)C)c1 ; changes: RT-V179D ; cells: CEM + CEM-SS ; read by: cytopathic effect / XTT ; strain: NL4-3 ; result: 9.125